PubChem BioAssay AID1259414, Drosophila RNAi Screening Center, 2018

Assay: 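Genome-wide screen for host control of endosymbiont load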 (primary screen)
System: Drosophila JW18 cells infected with Wolbachia
Knock-down reagent: long dsRNA against Drosophila genes, 0.25 µg dsRNA per well of a 384-well plate
Time to read-out: 5 days
Conditions: cells persistently infected with Wolbachia before knock-down; no added drug
Measurement: 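Automated imaging of bacterial rRNA staining divided by host cell count, reported as plate-normalised robust z-score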
Reading the numbers: Wolbachia per cell robust z: higher = more Wolbachia per host cell than the plate typical
Rule for the call: 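Hit when robust z is 1.5 or more, or -1.5 or less, in at least two of three replicates; excludes dsRNAs with several or no targets, genes not expressed in JW18 and well A1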
The screen tested about 24,000 reagents; shown is an unselected part of those with a known target gene and a result. In the full data, about 1,210 (5%) are marked active. 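Inactive calls also include excluded dsRNAs with several or no targets, genes unexpressed in JW18, and well A1, regardless of score.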 A number with no mark means an inactive call.

Depletion of Apc2 (Adenomatous polyposis coli 2) [DRSC14115] came out at: Wolbachia per cell robust z, rep 1 = -1.11; Wolbachia per cell robust z, rep 2 = -1.39; Wolbachia per cell robust z, rep 3 = -0.188. With knock-down of Cep97 (Centrosomal protein 97kDa) [DRSC00637], the record shows Wolbachia per cell robust z, rep 1 = -2.07 (active); Wolbachia per cell robust z, rep 2 = -3.88; Wolbachia per cell robust z, rep 3 = 0.724. Knock-down of Rlip (Ral interacting protein) [DRSC16828] came out at: Wolbachia per cell robust z, rep 1 = -0.719; Wolbachia per cell robust z, rep 2 = 0.104; Wolbachia per cell robust z, rep 3 = -0.519. For PlexA (Plexin A) [DRSC17220], the entry reads Wolbachia per cell robust z, rep 1 = -1.72; Wolbachia per cell robust z, rep 2 = 0.856; Wolbachia per cell robust z, rep 3 = -0.623. PlexA (Plexin A) [DRSC40720] gave Wolbachia per cell robust z, rep 1 = -0.639; Wolbachia per cell robust z, rep 2 = -2.04; Wolbachia per cell robust z, rep 3 = -0.997. For snRNA:U2:34ABb (small nuclear RNA U2 at 34AB b) [DRSC37897], the values are Wolbachia per cell robust z, rep 1 = 1.68; Wolbachia per cell robust z, rep 2 = 0.00658; Wolbachia per cell robust z, rep 3 = 0.147.

After knock-down of CG9674 [DRSC11088], the record shows Wolbachia per cell robust z, rep 1 = -2.15 (active); Wolbachia per cell robust z, rep 2 = -0.258; Wolbachia per cell robust z, rep 3 = -1.95. With knock-down of CG9674 [DRSC11089], the record shows Wolbachia per cell robust z, rep 1 = 0.124; Wolbachia per cell robust z, rep 2 = -0.693; Wolbachia per cell robust z, rep 3 = 0.53. Silencing of CG3713 [DRSC18648] gave: Wolbachia per cell robust z, rep 1 = 0.811; Wolbachia per cell robust z, rep 2 = -0.0125; Wolbachia per cell robust z, rep 3 = -1.13. After knock-down of Cp7Fa (Chorion protein a at 7F) [DRSC18032], the screen gave Wolbachia per cell robust z, rep 1 = -0.514; Wolbachia per cell robust z, rep 2 = -2.78; Wolbachia per cell robust z, rep 3 = -0.849. Against Cp7Fa (Chorion protein a at 7F) [DRSC18033], the entry reads Wolbachia per cell robust z, rep 1 = -0.576; Wolbachia per cell robust z, rep 2 = 0.719; Wolbachia per cell robust z, rep 3 = -0.729. Against Cp7Fa (Chorion protein a at 7F) [DRSC24279], the entry reads Wolbachia per cell robust z, rep 1 = 0.373; Wolbachia per cell robust z, rep 2 = -0.888; Wolbachia per cell robust z, rep 3 = -0.295.
